# PSTVd stem 15 mutant pool in Nicotiana benthamiana

PSTVd intermediate strain, stem 15: wild type CUGGAGCGAUCGCUUCGG, pool pattern CUGGAGCGAUNGNNUNNG; upper and lower strand joined, each 5' to 3', the first 9 letters being the upper strand.

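A pool of all variants was put on leaves of three Nicotiana benthamiana plants. Samples came from the inoculated region at 5 days, the leaf margin at 10 and upper systemic leaves at 12.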

Values are reads per thousand in the sample; higher means more abundant, 0 means not found.
Each value is the mean of three plants.
"Pool" is the share in the plasmid pool used as inoculum, on the same scale.
The inoculated region was read from the minus strand, the other sites from the plus strand.
IR is the inoculated region, LM the leaf margin, Sys the systemic leaves.
Wild type was 10.2 per thousand in the pool and the most common sequence in every sample (inoculated region 285, 367, 312; leaf margin 785, 865, 782; systemic leaves 854, 898, 915).
Sequences that differ at fixed positions probably stem from PCR or sequencing errors, and defective variants can be carried along by functional ones.
Samples held 36,693 to 63,082 reads, so the smallest values rest on one or two reads.

| sequence | pool | IR | LM | Sys |
|---|---|---|---|---|
| CUGGAGCGAUUGUAUGAG | 0.986 | 1.67 | 0.674 | 0.551 |
| CUGGAGCGAUAGACUCUG | 0.840 | 0.330 | 0.0435 | 0 |
| CUGGAGCGAUGGACUGUG | 1.02 | 0.300 | 0.0260 | 0 |
| CUGGAGCGAUAGGUUAUG | 0.889 | 0.238 | 0.0397 | 0 |
| CUGGAGCGAUCGACUGGG | 0.711 | 0.209 | 0.0260 | 0 |
| CUGGAGCGAUUGUAUGCG | 0.743 | 0.287 | 0.0526 | 0 |
| CUGGAGCGAUGGUGUCCG | 0.857 | 0.275 | 0.0349 | 0 |
| CUGGAGCGAUAGCUUAUG | 2.65 | 0.999 | 0.0726 | 0.199 |
| CUGGAGCGAUUGCGUAUG | 0.824 | 0.288 | 0.0207 | 0 |
| CUGGAGCGAUCGGGUGGG | 1.15 | 0.271 | 0.0424 | 0 |
| CUGGAGCGAUGGUCUGCG | 1.05 | 0.557 | 0.0403 | 0 |
| CUGGAGCGAUAGCAUCCG | 0.840 | 0.298 | 0.0541 | 0 |
| CUGGAGCGAUUGCAUGCG | 0.760 | 0.211 | 0.0329 | 0 |
| CUGGAGCGAUUGUGUGAG | 0.954 | 1.28 | 0.531 | 0.238 |
| CGGGAGCGAUCGACUAGG | 0.0162 | 0 | 0 | 0 |
| CUGGUGCGAUAGAAUUGG | 0.0162 | 0 | 0 | 0 |
| CUGGAGCGAUAGAGUCCG | 1.00 | 0.275 | 0.0302 | 0 |
| CUGGAGCGAUGGGAUAGG | 0.970 | 0.217 | 0.0472 | 0 |
| CUGGAGCGAUUGGCUAGG | 1.05 | 0.665 | 0.0276 | 0 |
| CUGGAGCGAUAGUGUUGC | 0.533 | 0.156 | 0 | 0 |
| CUGGAGCGAUAGACUCCG | 0.840 | 0.220 | 0.0356 | 0.00664 |
| CUGGAGCGAUUGGUUGCG | 0.760 | 0.304 | 0.0302 | 0 |
| CUGGAGCGAUAGUUUGAG | 0.776 | 0.267 | 0.0563 | 0 |
| CUGGAGCGAUAGUAUUGG | 1.03 | 0.612 | 0.0610 | 0 |
| CUGGAGCGAUUGCGUAGG | 0.986 | 0.259 | 0.0378 | 0 |
| CUGGAGCGAUGGAUUUUG | 1.47 | 0.778 | 0.0260 | 0 |
| CUGGAGCGAUAGUAUGGG | 0.840 | 0.229 | 0.0334 | 0 |
| CGGGAGCGAUUGUUUUUG | 0.0162 | 0 | 0 | 0 |
| CUGGAGCGAUUGGAUUAG | 0.905 | 1.56 | 0.529 | 0 |
| CUGGAGCGAUCGUAUCGG | 0.840 | 0.286 | 0.0265 | 0 |
| CUGGAGCGAUAGCCUGUG | 0.889 | 0.303 | 0.0371 | 0 |
| CUGGAGCGAUCGGUUUCG | 0.792 | 0.262 | 0.0122 | 0 |
| CUGGAGCGAUUGGCUGCG | 0.889 | 0.334 | 0.0472 | 0 |
| CUGGAGCGAUAGUCUUCG | 0.760 | 1.49 | 0.0265 | 0 |
| CUGGAGCGAUAGACUGGG | 2.15 | 1.85 | 0.237 | 0.00660 |
| CUGGAGCGAUUGUGUAGG | 1.05 | 0.579 | 0.0350 | 0 |
| CUGGAGCGAUGGACUACG | 0.905 | 0.231 | 0.0372 | 0 |
| CUGGAGCGAUAGCCUAAG | 0.905 | 0.243 | 0.0350 | 0 |
| CUAGAGCGAUCGCUUCUG | 0.0162 | 0 | 0 | 0 |
| CUGGAGCGAUGGGUUCGG | 0.921 | 0.292 | 0.0251 | 0 |
| CUGGAGCGAUGGAAUCAG | 0.889 | 0.364 | 0.0594 | 0 |
| CUGGAGCGAUGGAAUUGG | 0.598 | 0.247 | 0.0260 | 0 |
| CUGGAGCGAUCGAGUUCG | 0.857 | 0.291 | 0.0450 | 0 |
| CUGGAGCGAUAGGGUGUG | 0.873 | 0.284 | 0.0403 | 0 |
| CUGGAGCGAUGGCUUGGG | 0.986 | 0.288 | 0.0410 | 0 |
| CUGGAGCGAUCGCAUGCG | 0.533 | 0.303 | 0.0494 | 0 |
| CUGGAGCGAUUGAAUCGG | 2.10 | 2.31 | 0.0610 | 0 |
| CUGGAGCGAUUGCAUCAG | 0.760 | 0.213 | 0.0367 | 0 |
| CUGGAGCGAUCGCUACGG | 0.0970 | 0.0844 | 0.0950 | 0.0826 |
| CUGGAGCGAUAGGGUGCG | 0.760 | 0.297 | 0.0748 | 0 |
| CUGGAGCGAUUGGGUAGG | 0.905 | 0.247 | 0.0320 | 0 |
| CUGGAGCGAUUGGGUGAG | 1.07 | 0.501 | 0 | 0 |
| CUGGAGCGAUUGAGUAUG | 0.970 | 0.209 | 0.0488 | 0 |
| CUGGAGCGAUUGUUUCCG | 0.727 | 0.222 | 0.0372 | 0 |
| CUGGAGCGAUUGUAUGGG | 4.28 | 4.26 | 0.100 | 0.0265 |
| CUGGAGCGAUAGAGUUAG | 0.776 | 0.354 | 0.0381 | 0 |
| CUGGAGCGAUAGCCUAUG | 0.857 | 0.224 | 0.0318 | 0 |

Extract of 3 entries:

{"sequence": "CUGGAGCGAUGGAAUCAG", "pool": "0.889", "IR": 0.364, "LM": 0.0594, "Sys": 0}
{"sequence": "CUGGAGCGAUCGGUUUCG", "pool": "0.792", "IR": 0.262, "LM": 0.0122, "Sys": 0}
{"sequence": "CUGGAGCGAUUGGCUGCG", "pool": "0.889", "IR": 0.334, "LM": 0.0472, "Sys": 0}

Source: Wu et al. 2024 (doi:10.1371/journal.ppat.1012142), supplementary data.